Compound potency records, mixed from different reports. Data source: NIAID ChemDB in PubChem.

Common to all: growth or infection tests; species: Varicella zoster virus; endpoint: EC50

Rows are shuffled and stem from different studies. An empty or dashed field is not shown. ECn: concentration that inhibits the pathogen or its effect by n%.

| smiles | method | strain or isolate | cell line | value |
|---|---|---|---|---|
| Nc1nc2c(ncn2[C@H]2C=C[C@@H](CO)[C@H](O)C2)c(=O)[nH]1 |  | KOS (TK-) |  | 5.8 µg/mL |
| NC1=NC2C(C=CN2CC(CO)CCO)C(=O)N1 | cytopathic effect | 07/1 (TK-) | HEL | 4.6 µg/mL |
| CCCCC#Cc1cn(S(=O)(=O)c2ccc(C)cc2)c(=O)[nH]c1=O | plaque count | 07/1 | HEL | >16 µM |
| CCCCCCCCCCc1cc2cn([C@H]3C[C@H](O)[C@@H](CO)O3)c(=O)nc2n1CC | plaque count | YS/R (TK-) | HEL | >5 µM |
| CC(C)Nc1nc(N)nc2c1ncn2/C=C1/C[C@@H]1CO | plaque count |  | HFF | >365 µM |
| CCCCCCCCC#Cc1cn(S(=O)(=O)c2ccc(C)cc2)c(=O)[nH]c1=O | plaque count | OKA | HEL | 16 µM |
| OC[C@H]1O[C@@H](c2cc(C(O)C(Br)Br)c(F)cc2F)C[C@@H]1O | plaque count | YS (TK+) | HEL | >200 µg/mL |
| Nc1ncnc2c1ncn2[C@@H]1C=C(CO)[C@@H](O)[C@H]1O | cytopathic effect | 07/1 YS/R (TK-) | HEL | 9 µg/mL |
| CCc1cn([C@@H]2O[C@H](CO)[C@@H](O)[C@@H]2O)c(=S)[nH]c1=O | plaque count | Kanno-Kohmura (TK-) | MRC-5 | >264.9 µM |
| CCCSc1nc(N)nc2c1ncn2/C=C1/C[C@@H]1CO | plaque count |  | HFF | >69 µM |
| O=c1[nH]c(=O)n([C@H]2C[C@H](O)[C@@H](CO)O2)cc1I | plaque count | KANNO | HEF | 1.1 µg/mL |
| CCCCCCCCCCc1cc2cn([C@H]3C[C@H](O)[C@@H](CO)O3)c(=O)nc2n1CCC | plaque count | 07/1 (TK-) | HEL | >5 µM |
| CC[C@H](O)C1=C[C@@H](n2cnc3c(N)ncnc32)[C@H](O)[C@@H]1O | cytopathic effect | 07/1 YS/R (TK-) | HEL | >50 µg/mL |
| CCCCCCCCc1cc2cnc(=O)[nH]c2o1 | plaque count | OKA | HEL | >80 µM |
| Nc1ccn([C@@H]2O[C@H](CO)[C@@H](O)[C@@H]2O)c(=O)n1 | plaque count | YS-W3 G19 H3 | HEL | 0.15 µg/mL |
| O=C(NCc1ccc(Cl)cc1)c1c[nH]c2ccc(C#CCO)cc2c1=O | plaque count | NAG |  | 0.1 µM |
| CCCCCCCCCCC#Cc1cn(S(=O)(=O)c2ccc(C)cc2)c(=O)[nH]c1=O | plaque count | 07/1 | HEL | 27 µM |
| CCCCCCc1cc2cn([C@H]3C[C@H](O)[C@@H](CO)O3)c(=O)nc2[nH]1 | plaque count | OKA | HEL | >50 µM |
| O=c1ccn([C@@H]2C[C@H](CO)C[C@H]2CO)c(=O)[nH]1 |  | 07/1 (TK-) | HEL | >100 µg/mL |
| Nc1ncnc2c1ncn2[C@@H]1O[C@H](CO)[C@@H](O)[C@@H]1O | cytopathic effect | VEX411 | HEF | 2.5 µg/mL |
| Nc1nc(NCc2ccccc2)c2ncn(/C=C3/C[C@@H]3CO)c2n1 | plaque count |  | HFF | >62 µM |
| Nc1nc2c(ncn2CCC(CO)CO)c(=O)[nH]1 | plaque count | Kawaguchi | HEL | 5.6 µg/mL |
| O=C1OC(C(O)Cn2cc(F)c(=O)[nH]c2=O)C(OCc2ccccc2)=C1OCc1ccccc1 |  | TK- | HEL | >50 µg/mL |
| Nc1ccn(C[C@@H](CO)OCP(=O)(O)O)c(=O)n1 | cytopathic effect | YS/R (TK-) | HEL | 0.08 µM |
| Nc1nc2c(ncn2[C@H]2CCC[C@H]2CO)c(=O)[nH]1 | plaque count | 07/1 (TK-) | HEL | >50 µg/mL |
| CCCCCCCCc1cc2cn([C@H]3C[C@H](O)[C@@H](CO)O3)c(=O)nc2[nH]1 | plaque count | YS/R (TK-) | HEL | >20 µM |
| CC(C)Nc1ncnc2c1ncn2C1C[C@H](CO)[C@@H](CO)C1 |  | OKA | HEL | >100 µg/mL |
| CC(C)CS[C@@H]1C[C@H](n2cnc3c(N)ncnc32)[C@@H](O)[C@H]1O | cytopathic effect | YS | HEL | >200 µg/mL |
| CCCCCCCC#Cc1cn(S(=O)(=O)c2ccc(C)cc2)c(=O)[nH]c1=O | plaque count | OKA | HEL | >16 µM |
| O=c1[nH]c(=O)n([C@H]2C[C@H](O)[C@@H](CO)O2)cc1/C=C/Br | cytopathic effect | YS/R (TK-) | HEL | >150 µM |
| Nc1nc(NCCO)c2ncn(/C=C3/C[C@@H]3CO)c2n1 | plaque count |  | HFF | >60 µM |
| Nc1nc2c(ncn2C[C@H]2CCC[C@H]2CO)c(=O)[nH]1 | plaque count | YS/R (TK-) | HEL | >50 µg/mL |
| C#C[C@@H](O)C1=C[C@@H](n2cnc3c(N)ncnc32)[C@H](O)[C@@H]1O | cytopathic effect | OKA YS | HEL | 15 µg/mL |
| CCCOc1nc(N)nc2c1ncn2/C=C1/C[C@@H]1CO | plaque count |  | HFF | 8 µM |
| CCc1cn([C@H]2C[C@H](O)[C@@H](CO)O2)c(=S)nc1N | plaque count | Kanno-Kohmura (TK-) | MRC-5 | >288.6 µM |
| O=C1OC(C(O)Cn2cc(C(F)(F)F)c(=O)[nH]c2=O)C(OCc2ccccc2)=C1OCc1ccccc1 |  | TK- | HEL | >50 µg/mL |
| O=c1ccn([C@@H]2O[C@H](/C=C/C=C(Br)Br)[C@@H](O)[C@H]2O)c(=O)[nH]1 |  | 07/1 | HEL | >120 µM |
| O=c1[nH]c(=O)n(C2C[C@H](CO)[C@@H](CO)C2)cc1I |  | 07/1 (TK-) | HEL | >100 µg/mL |
| Nc1ncc2ncn([C@H]3CCC[C@H]3CO)c2n1 | plaque count | YS/R (TK-) | HEL | >20 µg/mL |
| O=c1[nH]c(=O)n([C@H]2C[C@H](O)[C@@H](CO)O2)cc1/C=C/I | cytopathic effect | VEX411 | HEF | 0.01 µg/mL |
| O=c1[nH]c(=S)n([C@@H]2O[C@H](CO)[C@@H](O)[C@@H]2O)cc1/C=C/Br | plaque count | Kanno-Kohmura (TK-) | MRC-5 | >213 µM |
| OC[C@H]1O[C@@H](c2cc(C(O)C(I)I)c(F)cc2F)C[C@@H]1O | plaque count | 07/1 (TK-) | HEL | 115 µg/mL |
| C=CCNc1nc(N)nc2c1ncn2/C=C1/C[C@@H]1CO | plaque count |  | HFF | >368 µM |
| Cc1cn([C@H]2C[C@H](O)[C@@H](CO)O2)c(=S)nc1N | plaque count | Kanno-Kohmura (TK-) | MRC-5 | >300.8 µM |
| Nc1nc(NC2CC2)c2ncn(/C=C3/C[C@@H]3CO)c2n1 | plaque count |  | HFF | 12 µM |
| CC(NC(=S)Nc1ccc(NC(=O)c2ccccc2F)cc1C#N)c1ccc(F)cc1 | ELISA | JAB1233 | HFF | 0.23 µg/mL |
| Nc1nc2c(ncn2/C=C2/C[C@@H]2CO)c(=O)[nH]1 | plaque count |  | HFF | 55 µM |
| O=C(O)CP(=O)(O)O | plaque count | YS-W1 H13 | HEL | 7 µg/mL |
| CCCCCCCCC#Cc1c[nH]c(=O)[nH]c1=O | plaque count | 07/1 | HEL | 16 µM |
| Cc1cn([C@H]2C/C(=N\O)[C@@H](CO)O2)c(=O)[nH]c1=O | cytopathic effect | YS | HEL | >200 µg/mL |
| CCCCCCCCCCc1cc2cn([C@H]3C[C@H](O)[C@@H](CO)O3)c(=O)nc2n1C | plaque count | YS/R (TK-) | HEL | >20 µM |
| O=C1O/C(=C\Cn2ccc(=O)[nH]c2=O)C(O)=C1O |  | TK- | HEL | >50 µg/mL |
| Nc1nc2c(ncn2CSC(CO)CO)c(=O)[nH]1 | plaque count | 6350 | MRC-5 | 26 µM |
| Nc1nc2c(ncn2COC(CO)CO)c(=O)[nH]1 | cytopathic effect | YS/R (TK-) | HEL | 24 µM |
| O=c1[nH]c(=O)n([C@H]2C[C@H](O)[C@@H](CO)O2)cc1/C=C/Br | plaque count | OKA | HEF | 0.0016 µg/mL |

Again, the opening 6 rows:

smiles,method,strain or isolate,cell line,value
Nc1nc2c(ncn2[C@H]2C=C[C@@H](CO)[C@H](O)C2)c(=O)[nH]1,,KOS (TK-),,5.8 µg/mL
NC1=NC2C(C=CN2CC(CO)CCO)C(=O)N1,cytopathic effect,07/1 (TK-),HEL,4.6 µg/mL
CCCCC#Cc1cn(S(=O)(=O)c2ccc(C)cc2)c(=O)[nH]c1=O,plaque count,07/1,HEL,>16 µM
CCCCCCCCCCc1cc2cn([C@H]3C[C@H](O)[C@@H](CO)O3)c(=O)nc2n1CC,plaque count,YS/R (TK-),HEL,>5 µM
CC(C)Nc1nc(N)nc2c1ncn2/C=C1/C[C@@H]1CO,plaque count,,HFF,>365 µM
CCCCCCCCC#Cc1cn(S(=O)(=O)c2ccc(C)cc2)c(=O)[nH]c1=O,plaque count,OKA,HEL,16 µM